Results: paper PMC8231113, “Protein Secondary Structure Affects Glycan Clustering in Native Mass Spectrometry” (Life, 2021)

Tested on: superfolder green fluorescent protein (GFP)
Test: Native MS glycan clustering to reference protein GFP
Type: binding
Settings: on GFP

Compound	Glycan-Clustering Ratio R (100 µM glycan)	Glycan-Clustering Ratio R (200 µM glycan)	Glycan-Clustering Ratio R (300 µM glycan)	Glycan-Clustering Ratio R (400 µM glycan)	Glycan-Clustering Ratio R (500 µM glycan)
CC(=O)N[C@H]1[C@H](O[C@H]2[C@@H](O)[C@@H](CO)O[C@H](O[C@@H]3[C@H](O)[C@@H](O)[C@H](O[C@H]4[C@H](O)[C@@H](O)C(O)O[C@@H]4CO)O[C@@H]3CO)[C@@H]2O)O[C@H](CO)[C@H](O)[C@@H]1O (stereo partly drawn) [Gb4, GalNAc β1-3 Galα1-4Galβ1-4Glc]	0.27±0.02	0.32±0.07	0.53±0.01	0.69±0.04	0.80 ± 0.03
CC(=O)N[C@H]1[C@@H](O[C@H]2[C@@H](O)[C@@H](CO)O[C@@H](O[C@H]3[C@H](O)[C@@H](CO)OC(O)[C@@H]3NC(C)=O)[C@@H]2O[C@@H]2O[C@@H](C)[C@@H](O)[C@@H](O)[C@@H]2O)O[C@H](CO)[C@H](O)[C@@H]1O (stereo partly drawn) [HBGA A, GalNAcα1-3(Fucα-2)Galβ1-3GlcNAc]	0.30±0.02	0.35± 0.05	0.54± 0.01	0.68± 0.04	0.86 ± 0.04
CC(=O)N[C@H]1C(O)O[C@H](CO)[C@@H](O)[C@@H]1O[C@@H]1O[C@H](CO)[C@H](O)[C@H](O[C@H]2O[C@H](CO)[C@H](O)[C@H](O)[C@H]2O)[C@H]1O[C@@H]1O[C@@H](C)[C@@H](O)[C@@H](O)[C@@H]1O (stereo partly drawn) [HBGA B, Galα1-3(Fucα1-2)Galβ1-3GlcNAc]	0.30±0.02	0.41±0.02	0.44±0.04	0.57±0.01	0.67 ± 0.02
